According to paper PMC3697012:

What was measured:
Assay in all cases: purified protein
Conditions in all cases: pH 8.0; 37.0 °C
[1] = test system: CC(=O)N[C@@H](CC[S@+](C)[O-])C(=O)O
[2] = test system: C[S@+]([O-])CC[C@H](N)C(=O)O
[3] = test system: CC(=O)N[C@@H](CC[S@@+](C)[O-])C(=O)O

| Substance | Km [1] [µM] | Km [2] [µM] | Km [3] [µM] |
| --- | --- | --- | --- |
| MsrA (recombinant Mtb MsrA) (Mycobacterium tuberculosis H37Rv) | 1600 ± 400 | 4300 ± 600 | – |
| MsrB (Rv2674) (Mycobacterium tuberculosis H37Rv) | – | – | 1700 ± 600 |
